Consider four molecules from US20220220106A1, “QUINOLINE COMPOUNDS AND PHARMACEUTICAL COMPOSITIONS AND USES THEREOF” (Academy of Military Medical Sciences, priority 2019, published 2022).

SMILES strings stand for the structures.

The test system of this series is Enterovirus 71 (EV71) H strain. The experiment in a line: In vitro anti-EV71 activity (antiviral activity in RD cells, CellTiter-Glo). The class given is cell-based. Particulars: selection index SI=TD50/IC50. Here is the method:
According to the mass and molecular weight of the compound to be tested, the compound to be tested was dissolved to 100 mM (mmol/L) with DMSO.
Detection of Antiviral Activity:
(1) First, the compound to be tested was diluted to 800 μM with cell maintenance solution (DMEM+2% FBS, Gibco, catalog numbers: 11995-065, 1600-044), and three-fold gradient dilution was performed to prepare 10 concentrations in total. The diluted compound was added to a 96-well plate with white wall and transparent bottom, 50 μl per well. To both the cell control group and the virus control group, an equal volume of the cell maintenance solution was added.
(2) EV71 virus (purchased from ATCC) was taken out from the −80° C. refrigerator and equilibrated to room temperature.
(3) The virus seed was diluted with a virus growth solution (DMEM+2% FBS, Gibco, catalog numbers: 11995-065, 1600-044) to 100TCID50, the diluted virus seed was added to the 96-well plate of (1), with […] per well. The same volume of the virus growth solution was added to the cell control group.
(4) RD cells (purchased from ATCC) were inoculated at a concentration of 1*10^5/mL into the 96-well plate of (1), with 100 μL per well, to reach a final volume of 200 μL per well. The final concentration of drug was 0.25 times the initial concentration.
(5) RD cells were cultured at 37° C. for 4 days for testing.
(6) The Buffer of CellTiter-Glo® luminescent cell viability assay reagent (Promega) was mixed with the substrate in the dark to prepare a working solution.
(7) The culture medium in the plate was discarded, the plate was dried by patting, 100 μL of the detection reagent was added to each well, and the 96-well plate was shaken on an orbital shaker for 4 minutes to induce cell lysis. After keeping in the dark and subjecting to signal stabilization for 15 minutes, the chemiluminescence unit was detected by using MD5 microplate reader (Molecular Devices), and the plate reading program was performed according to the CellTiter-Glo preset program.
The inhibition rate-concentration curve was fitted to S-curve by using origin8.0 software to calculate the IC50 value of the compound to be tested.
The formula for calculating the inhibition rates of drug at different dilution degrees was as follows: inhibition rate (%)=(average value of cell control group−value of experimental group)/(average value of cell control group−minimum value of experimental group)*100
The inhibition rate-concentration curve was fitted to S-curve by using origin8.0 software, and the IC50 value of the compound to be tested was calculated. The same method was used to calculate the TD50 value, and the selection index SI=TD50/IC50 was calculated according to the half maximal inhibitory concentration IC50 and the median toxic dose TD50.

The molecule `NC(=O)/C=C/c1ccc2ncc3ccc(=O)n(-c4cccc(C(F)(F)F)c4)c3c2c1` [HTL-7-24, (E)-9-(2-carbamoyl-vinyl)-2-oxo-1-[3-(trifluoromethyl)phenyl]-1,2-dihydrobenzo[h][1,6]naphthyridine] returned an SI of 1.67. `NC(=O)NC/C=C/c1ccc2ncc3ccc(=O)n(-c4cccc(C(F)(F)F)c4)c3c2c1` [HTL-7-25, (E)-9-[3-ureido-propenyl]-2-oxo-1-[3-(trifluoromethyl)phenyl]-1,2-dihydrobenzo[h][1,6]naphthyridine] displayed an SI of 10.78. Molecule `CCOC(=O)/C=C/c1ccc2ncc3ccc(=O)n(-c4cccc(C(F)(F)F)c4)c3c2c1` [HTL-7-26, (E)-9-[2-ethoxycarbonyl-vinyl]-2-oxo-1-[3-(trifluoromethyl)phenyl]-1,2-dihydrobenzo[h][1,6]naphthyridine] returned an SI of 4.61. Molecule `CCOC(=O)/C=C/c1ccc2ncc3oc(=O)n(-c4cccc(C(F)(F)F)c4)c3c2c1` [WSX-1-13, (E)-8-(2-ethoxycarbonyl-vinyl)-1-[3-(trifluoromethyl)phenyl]oxazolo[5,4-c]quinolin-2(1H)-one] displayed an SI of 0.74.
